Experimental data as given in patent US10961279B2 (priority 2011, dated 2021).

System: CTLL-2 cells
Assay: CTLL-2 assay (proliferation, Click-it labelling, flow cytometry)
Assay type: cell-based
Details: FIG. 2; Flavi virus derived peptide, dimerized vs monomeric; concentrations in μM

DRGWGNGCGLFGKG
inhibition of proliferation of CTLL-2 cells: significant inhibition of proliferation
